Laboratory results published in article PMC9108200, “Antiviral Activity of Selected Lamiaceae Essential Oils and Their Monoterpenes Against SARS-Cov-2” (Frontiers in Pharmacology, 2022).

System: SARS-CoV-2
Format: cell-based
Conditions: monoterpenes; ratio of IC50 against Vero cells to IC50 against SARS-Cov2

Structure (SMILES)	TI (therapeutic index)
Cc1ccc(C(C)C)cc1O [Carvacrol]	6.23
Cc1coc2c1CCC(C)C2 (centres unmarked) [Menthofuran]	3.28
